A word on the Kd: it is a measure of binding affinity in units of concentration. The koff is the rate constant with which the complex falls apart. A higher koff goes with a short-lived complex. By kon is commonly meant the rate constant with which the complex forms. The low end stands for slower complex formation, the high end for faster complex formation.

In experiment [1] the target is S1-C9 (SARS-CoV (Tor2 isolate)) (UniProt P59594). As to the kind of experiment: phage ELISA, S1-C9 coated 0.2 µg per well. Background: An ELISA detects its analyte on a solid surface through an enzyme-linked reagent.
In experiment [2] the target is S1-Ig (SARS-CoV (Tor2 isolate); human) (UniProt P59594). As to the kind of experiment: SPR (BIAcore 3000), S1-Ig amine-coupled to CM5 chip. In general terms: SPR reads the build-up and loss of mass on a sensor chip optically.
The target in experiment [3] is S1(327-510)-Ig (SARS-CoV (Tor2 isolate); human) (UniProt P59594). As to the kind of experiment: radioimmunoprecipitation with 80R scFv beads, normalized to Protein A.

Substance 80R scFv came in with an A450 in experiment [1] of more than 1 A450. In experiment [2], the Ka amounted to 3.1e+07 M⁻¹, the Kd was 32.3 nM, the off-rate (koff) worked out at 0.00836 s⁻¹ and the kon came to 229000 M⁻¹ s⁻¹. Moreover, the percent of the amount that Protein A precipitated in experiment [3] was 5%.

These data come from patent US7750123B2.
